# Data as given in US20070197446A1, “MHC binding peptides and their uses” (ProImmune Limited, priority 2006, published 2007).
Binder,ELISA (Absorption-Pass/Fail Control) (HLA-B*3501),ELISA (Absorption-Pass/Fail Control) (HLA-A*0201),ELISA (Absorption-Pass/Fail Control) (HLA-B*0702),ELISA (Absorption-Pass/Fail Control) (HLA-B*0801)
KKHNGKLCD (modifications not checked) [… (SEQ ID NO: 41)],-0.05 absorption,–,–,–
YIVEKANPV (modifications not checked) [… (SEQ ID NO: 26)],–,1.02 absorption,0.11 absorption,0.32 absorption
